Our source for the inhibition values is PubChem BioAssay AID1903 (Southern Research Specialized Biocontainment Screening …, 2009).

Sequences of proteins named here, by UniProt entry; tags and fusion partners are left off.
UniProt P03070, whole entry: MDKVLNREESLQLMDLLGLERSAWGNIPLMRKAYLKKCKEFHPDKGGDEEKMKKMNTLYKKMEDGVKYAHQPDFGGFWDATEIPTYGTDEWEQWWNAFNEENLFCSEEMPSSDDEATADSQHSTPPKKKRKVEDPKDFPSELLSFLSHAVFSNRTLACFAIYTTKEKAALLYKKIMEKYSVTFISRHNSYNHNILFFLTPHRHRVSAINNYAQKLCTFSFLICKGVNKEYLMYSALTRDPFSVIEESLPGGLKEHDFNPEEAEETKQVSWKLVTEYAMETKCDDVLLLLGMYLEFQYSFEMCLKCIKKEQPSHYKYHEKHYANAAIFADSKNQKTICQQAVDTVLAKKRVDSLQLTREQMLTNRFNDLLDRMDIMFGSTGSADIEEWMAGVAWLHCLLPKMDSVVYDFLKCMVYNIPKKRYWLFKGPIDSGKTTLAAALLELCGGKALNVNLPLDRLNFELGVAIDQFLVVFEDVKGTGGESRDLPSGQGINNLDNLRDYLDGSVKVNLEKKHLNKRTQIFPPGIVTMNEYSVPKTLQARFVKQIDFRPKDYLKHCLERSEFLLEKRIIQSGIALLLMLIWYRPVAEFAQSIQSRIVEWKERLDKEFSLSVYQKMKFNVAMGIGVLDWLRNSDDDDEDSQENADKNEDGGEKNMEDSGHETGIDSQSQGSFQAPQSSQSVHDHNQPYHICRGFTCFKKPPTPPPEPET

Some of the results follow. Potency and affinity values are given separately. Activity calls are given as the source filed them. The rule behind the calls is not given here.

The assay addresses Large T antigen (Simian virus 40) (UniProt P03070). Briefly: SV40 large T antigen inhibitors, biochemical (AID 1903). The settings on record: SV40 large T antigen ATPase/helicase inhibition assay; at 20 µM; stronger effect = higher value.
As usually defined, the inhibition is the change of the read-out against control, counted positive when it falls. Consider `CCN1CCC(Nc2cccc(F)c2)CC1`, for which the inhibition was inactive: 3.3%.
For `CN(C)c1ccc(C(=O)NCC2(N3CCCCC3)CCCCC2)cc1`, the inhibition was inactive: 20.7%.
As for `COc1cc(OC)cc(C(=O)NCC2(N3CCCCC3)CCCCC2)c1`, the inhibition is inactive: -1.32%.
The result for `Fc1ccccc1NC1CCN(Cc2ccccc2)CC1` reads inactive: 3.74%.
With `Cc1ccc(C(=O)NCC2(N3CCCCC3)CCCCC2)o1`, the inhibition was inactive: 11.4%.
The result for `CCC(CO)(C(=O)OC1CN2CCC1CC2)c1ccccc1` (stereo not given) reads inactive: 5.59%.
`COc1cc(OC)cc(C(=O)NCC2(N3CCOCC3)CCCCC2)c1`: the inhibition was inactive: 3.35%.
In the case of `COc1cccc(C(=O)N(c2cc(C)cc(C)c2)C2CCN(C(=O)OC(C)(C)C)CC2)c1`, the inhibition was inactive: 5.16%.
With `CCCOc1ccc(C)cc1CN(CCCl)CCCl`, the inhibition is inactive: 1.68%.
On to `CN1CCC(Nc2ccc(Cl)cc2)CC1`, for which the inhibition is inactive: 9.74%.
To `CN1CCC(Nc2ccc(F)c(Cl)c2)CC1` belongs inactive: 11.3%; to `CCOc1ncccc1C(=O)NCC1(N2CCOCC2)CCCCC1`, inactive: -2.67%.
The result for `CCCOc1ccc(C(=O)NCC2(N(C)C)CCCCC2)cc1` reads inactive: 4.98%.
To `O=C(O)C1(Nc2ccccc2)CCN(Cc2ccccc2)CC1` belongs inactive: 3.84%.
`CC(C)(C)OC(=O)N1CCC(Nc2ccccc2)CC1`: the inhibition is inactive: 11%.
The result for `N/C(=N\O)c1c(N)no[n+]1[O-]` reads inactive: 0.26%; that for `CCOC(=O)N1CCC(Nc2ccc(C)cc2)CC1`, inactive: 16.6%; that for `O=C(OC1CN2CCC1CC2)C1c2ccccc2C=Cc2ccccc21` (stereo not given), inactive: 10.9%.
For the compound `CCc1cc(C(=O)NCC2(N3CCCCC3)CCCCC2)sc1C`, the inhibition was inactive: 7.53%.
With `COc1ccc(C(=O)NCC2(N3CCOCC3)CCCCC2)cc1OC`, the inhibition is inactive: 1.57%.
To `CCCN1CCC(Nc2cc(OC)cc(OC)c2)CC1` belongs inactive: 0.82%; to `c1ccc(CN2CCC(Nc3ccccc3)CC2)cc1`, inactive: -1.91%.
To `CN(C)C1(CNC(=O)c2cccc(C#N)c2)CCCCC1` belongs inactive: 3.75%.
The result for `CC(C)(C)OC(=O)N1CCC(N(C(=O)c2ccccc2)c2ccc(Cl)cc2)CC1` reads inactive: 5.02%; that for `N#Cc1ccc(C(=O)NCC2(N3CCCCC3)CCCCC2)cc1`, inactive: 6.69%.
For the compound `O=C(NCC1(N2CCCCC2)CCCCC1)c1cccc(C(F)(F)F)c1`, the inhibition is inactive: 7.29%.
To `CN1CCN(CCOC(=O)C(O)(c2ccccc2)c2ccccc2)CC1` belongs inactive: 12.4%.
On to `COc1cc(C(=O)NCC2(N3CCCCC3)CCCCC2)ccc1OC(F)F`, for which the inhibition is inactive: 5.57%.
To `O=C(NCC1(N2CCOCC2)CCCCC1)c1cc(=O)[nH]c2ccccc12` belongs inactive: 1.79%.
On to `O=C(NCC1(N2CCCCC2)CCCCC1)c1ccc(OC(F)F)cc1`, for which the inhibition is inactive: 3.8%.
To `O=C(NCC1(N2CCCCC2)CCCCC1)c1cccc([N+](=O)[O-])c1` belongs inactive: 7.49%.
Regarding `N#CC1(Nc2ccccc2)CCN(CCc2ccccc2)CC1`, the inhibition is inactive: -0.235%.
With `CCN1CCC(Nc2ccc(Cl)cc2)CC1`, the inhibition is inactive: 10.2%.
The result for `CCCOc1ccc(C(=O)NCC2(N(C)C)CCCCC2)cc1OC` reads inactive: 19.1%; that for `CN(C)c1cccc(C(=O)NCC2(N3CCCCC3)CCCCC2)c1`, inactive: -3.75%; that for `COc1ccc(CN(CCCl)CCCl)cc1Cl`, inactive: 15.7%.
Consider `CC(C)c1ccc(NC2CCN(C(=O)OC(C)(C)C)CC2)cc1`, for which the inhibition was inactive: 1.75%.
The result for `COc1cc(OC)c(C(=O)NCC2(N(C)C)CCCCC2)cc1OC` reads inactive: 3.56%; that for `O=C(NCC1(N2CCOCC2)CCCCC1)c1cc2ccccc2o1`, inactive: -1.08%; that for `Cc1cc(C)cc(N(C(=O)c2ccccc2)C2CCN(C(=O)OC(C)(C)C)CC2)c1`, inactive: 3.96%.
The result for `O=C(NCC1(N2CCCCC2)CCCCC1)c1ccc(Cl)nc1` reads inactive: 19.4%.
Regarding `O=C(OC1CN2CCC1CC2)C1c2ccccc2Oc2ccccc21` (stereo not given), the inhibition was inactive: 2.82%.
As for `N#CC1(Nc2ccccc2)CCN(Cc2ccccc2)CC1`, the inhibition was inactive: 12%.
For `O=C(NCC1(N2CCCCC2)CCCCC1)c1cccs1`, the inhibition is inactive: 25.7%.
To `O=C(NCC1(N2CCCCC2)CCCCC1)c1ccc(=O)[nH]c1` belongs inactive: 26.2%; to `CC(C)(C)OC(=O)N1CCC(N(C(=O)c2ccccc2)c2ccc(F)cc2)CC1`, inactive: 7.09%; to `COc1ccc(C(=O)NCC2(N3CCCCC3)CCCCC2)c(OC)c1OC`, inactive: 23.7%.
Turning to `COc1ccc(C(=O)NCC2(N3CCCCC3)CCCCC2)cc1`, the inhibition was inactive: 8.71%.
The result for `CSc1ccccc1C(=O)NCC1(N2CCCCC2)CCCCC1` reads inactive: 11.3%.
The result for `Cc1ccc(OCC(C)C)c(CN(CCCl)CCCl)c1` reads inactive: 6.76%; that for `COc1cc(C(=O)NCC2(N(C)C)CCCCC2)ccc1OC(F)F`, inactive: 1.23%.
To `CCOC(=O)N1CCC(Nc2cccc(C)c2)CC1` belongs inactive: 9.68%; to `CCOc1ccc(C)cc1CN(CCCl)CCCl`, inactive: -0.225%.
On to `CCOC(=O)N1CCC(Nc2ccc(F)cc2)CC1`, for which the inhibition is inactive: 9.41%.
To `O=C(NCC1(N2CCCCC2)CCCCC1)c1ccc(F)cc1` belongs inactive: 5.28%.
